Results from US12036225B2, “Use of ibezapolstat to promote microbiome health” (Acurx Pharmaceuticals, Inc., priority 2021, dated 2024).

Tests used:
Type in all cases: in vivo, human
gut microbiome = assay: Phase I healthy volunteer study: stool microbiome by shotgun metagenomic / 16S sequencing (alpha/beta diversity, taxa); conditions: healthy subjects; for Shannon alpha diversity, average change ± standard deviation over the study time period: p vs placebo in brackets
[1] = tested on: primary and secondary bile acids; assay: Phase 2a trial: fecal bile acids by LC-MS; conditions: CDI patients
[2] = tested on: primary and secondary bile acids; assay: Phase I healthy volunteer study: stool bile acids by LC-MS; conditions: healthy subjects
[3] = ibezapolstat 300 mg twice daily 10 days
[4] = ibezapolstat 450 mg twice daily 10 days

Structure (SMILES): O=c1[nH]c(NCc2ccc(Cl)c(Cl)c2)nc2ncn(CCN3CCOCC3)c12 [Ibezapolstat, 2-((3,4-dichlorobenzyl)amino)-7-(2-morpholinoethyl)-1,7-dihydro-6H-purin-6-one]
- Proportional change (mean ± SE): Actinobacteria (phylum) (gut microbiome; Ibezapolstat 300 mg): 0.31 ± 0.053
- Proportional change (mean ± SE): Bacteroidetes (phylum) (gut microbiome; Ibezapolstat 300 mg): −0.0055 ± 0.025
- Proportional change (mean ± SE): Fusobacteria (phylum) (gut microbiome; Ibezapolstat 300 mg): 0.0011 ± 0.015
- Proportional change (mean ± SE): c_Actinobacteria (gut microbiome; Ibezapolstat 300 mg): 0.27 ± 0.052
- Proportional change (mean ± SE): c_Actinobacteria o_Bifidobacteriales (gut microbiome; Ibezapolstat 300 mg): 0.27 ± 0.053
- Proportional change (mean ± SE): c_Actinobacteria o_Bifidobacteriales f_Bifidobacteriaceae (gut microbiome; Ibezapolstat 300 mg): 0.27 ± 0.053
- Proportional change (mean ± SE): c_Bacilli (gut microbiome; Ibezapolstat 300 mg): 0.016 ± 0.044
- Proportional change (mean ± SE): c_Bacilli o_Lactobacillales (gut microbiome; Ibezapolstat 300 mg): 0.016 ± 0.044
- Proportional change (mean ± SE): c_Bacilli o_Lactobacillales f_Lactobacillaceae (gut microbiome; Ibezapolstat 300 mg): 0.024 ± 0.042
- Proportional change (mean ± SE): c_Coriobacteriia (gut microbiome; Ibezapolstat 300 mg): 0.036 ± 0.016
- Proportional change (mean ± SE): c_Coriobacteriia o_Coriobacteriales (gut microbiome; Ibezapolstat 300 mg): 0.035 ± 0.016
- Proportional change (mean ± SE): c_Coriobacteriia o_Coriobacteriales f_Coriobacteriaceae (gut microbiome; Ibezapolstat 300 mg): 0.034 ± 0.016
- Proportional change (mean ± SE): c_Gammaproteobacteria (gut microbiome; Ibezapolstat 300 mg): 0.12 ± 0.046
- Proportional change (mean ± SE): c_Gammaproteobacteria o_Enterobacterales (gut microbiome; Ibezapolstat 300 mg): 0.11 ± 0.043
- Proportional change (mean ± SE): c_Gammaproteobacteria o_Enterobacterales f_Enterobacteriaceae (gut microbiome; Ibezapolstat 300 mg): 0.11 ± 0.042
- Proportional change (mean ± SE): Actinobacteria (phylum) (gut microbiome; Ibezapolstat 450 mg): 0.31 ± 0.054
- Proportional change (mean ± SE): Bacteroidetes (phylum) (gut microbiome; Ibezapolstat 450 mg): 0.013 ± 0.025
- Proportional change (mean ± SE): Fusobacteria (phylum) (gut microbiome; Ibezapolstat 450 mg): 0.00046 ± 0.015
- Proportional change (mean ± SE): Proteobacteria (phylum) (gut microbiome; Ibezapolstat 450 mg): 0.09 ± 0.05
- Proportional change (mean ± SE): c_Actinobacteria (gut microbiome; Ibezapolstat 450 mg): 0.29 ± 0.053
- Proportional change (mean ± SE): c_Actinobacteria o_Bifidobacteriales (gut microbiome; Ibezapolstat 450 mg): 0.29 ± 0.053
- Proportional change (mean ± SE): c_Actinobacteria o_Bifidobacteriales f_Bifidobacteriaceae (gut microbiome; Ibezapolstat 450 mg): 0.29 ± 0.053
- Proportional change (mean ± SE): c_Bacilli (gut microbiome; Ibezapolstat 450 mg): 0.017 ± 0.045
- Proportional change (mean ± SE): c_Bacilli o_Lactobacillales (gut microbiome; Ibezapolstat 450 mg): 0.017 ± 0.045
- Proportional change (mean ± SE): c_Bacilli o_Lactobacillales f_Lactobacillaceae (gut microbiome; Ibezapolstat 450 mg): 0.015 ± 0.043
- Proportional change (mean ± SE): c_Coriobacteriia (gut microbiome; Ibezapolstat 450 mg): 0.024 ± 0.016
- Proportional change (mean ± SE): c_Coriobacteriia o_Coriobacteriales (gut microbiome; Ibezapolstat 450 mg): 0.026 ± 0.016
- Proportional change (mean ± SE): c_Coriobacteriia o_Coriobacteriales f_Coriobacteriaceae (gut microbiome; Ibezapolstat 450 mg): 0.025 ± 0.016
- Proportional change (mean ± SE): c_Gammaproteobacteria (gut microbiome; Ibezapolstat 450 mg): 0.092 ± 0.046
- Proportional change (mean ± SE): c_Gammaproteobacteria o_Enterobacterales (gut microbiome; Ibezapolstat 450 mg): 0.094 ± 0.044
- Proportional change (mean ± SE): c_Gammaproteobacteria o_Enterobacterales f_Enterobacteriaceae (gut microbiome; Ibezapolstat 450 mg): 0.087 ± 0.043
- Pielous alpha diversity, average change ± standard deviation over the study time period (gut microbiome; [3]): −0.0040 ± 0.024 (0.87)
- Simpson's alpha diversity, average change ± standard deviation over the study time period (gut microbiome; [3]): −0.013 ± 0.023 (0.59)
- Shannon alpha diversity, average change ± standard deviation over the study time period (gut microbiome; [3]): −0.12 ± 0.12 (0.31)
- Pielous alpha diversity, average change ± standard deviation over the study time period (gut microbiome; [4]): −0.051 ± 0.024 (0.031)
- Simpson's alpha diversity, average change ± standard deviation over the study time period (gut microbiome; [4]): −0.072 ± 0.022 (0.0019)
- Shannon alpha diversity, average change ± standard deviation over the study time period (gut microbiome; [4]): −0.45 ± 0.12 (0.0001)
- Primary bile acids, in words [1]: decrease in primary bile acids
- decrease of total primary acids in feces vs baseline ([1]; after completion of therapy): 40.5±14.1 ng/mg stool
- increase of total secondary bile acids vs baseline ([1]; after completion of therapy): 97.5±215.4 ng/mg stool
- Secondary bile acids, in words ([1]; during and following therapy): increased concentration of secondary bile acids
- decrease of total primary acids in feces vs baseline ([1]; during therapy): 40.1±9.6 ng/mg stool
- increase of total secondary bile acids vs baseline ([1]; during therapy): 65.6±146.7 ng/mg stool
- 1° bile acids, average change ± standard deviation [2, 3]: −3.7 ± 172 (0.98) ug/L
- 1°:2° bile acid ratio, average change ± standard deviation [2, 3]: −1.3 ± 4.1 (0.75)
- 2° bile acids, average change ± standard deviation [2, 3]: −913 ± 675 (0.18) ug/L
- 1° bile acids, average change ± standard deviation [2, 4]: 307 ± 161 (0.061) ug/L
- 1°:2° bile acid ratio, average change ± standard deviation [2, 4]: 6.2 ± 3.8 (0.11)
- 2° bile acids, average change ± standard deviation [2, 4]: −971 ± 629 (0.13) ug/L
